According to patent US6399654B1, “Biflavanoids and derivatives thereof as antiviral agents” (priority 1995, dated 2002):

Key:
Hepatitis B Virus (HBV) = experiment: Inhibition of HBV replication in 2.2.15 cells, extracellular (virion) HBV DNA;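 further: extracellular virion HBV DNA in culture medium measured by slot blot hybridization with a 32P-labeled HBV probe, quantified against HBV DNA standards, after 9 days of daily dosing, compared with day 0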
Adenovirus Type 5 [1] = experiment: Adenovirus type 5 neutral red dye uptake in A549 cells; assay type: cell-based
Adenovirus Type 5 [2] = assay type: cell-based
[3] = tested on: Parainfluenza Type 3 Virus; assay type: cell-based
[4] = tested on: Influenza A (H3N2) Beijing/32/92; assay type: cell-based, influenza A virus
[5] = tested on: Respiratory Syncytial Virus; assay type: cell-based
[6] = tested on: Influenza A (H1N1) Texas/36/91; assay type: cell-based, influenza A virus
Measles Virus [7] = experiment: Measles virus neutral red dye uptake in BSC-1 cells; assay type: cell-based
[8] = tested on: Respiratory Syncytial Virus; assay type: cell-based; remark: listed apart in the source
[9] = tested on: Influenza A (H1N1) Texas/36/91; assay type: cell-based, influenza A virus; remark: listed apart in the source
Influenza B Panama/45/90 [10] = assay type: cell-based
Measles Virus [11] = assay type: cell-based
[12] = tested on: Influenza A (H3N2) Beijing/32/92; assay type: cell-based, influenza A virus; remark: listed apart in the source
[13] = tested on: Parainfluenza Type 3 Virus; assay type: cell-based; remark: listed apart in the source
Influenza B Panama/45/90 [14] = assay type: cell-based; remark: listed apart in the source

SMILES	TI (IC50/EC90) (Hepatitis B Virus (HBV))	Neutral Red SI (IC50/EC50) (Adenovirus Type 5 [1])	CPE Inhibition SI (IC50/EC50) (Adenovirus Type 5 [2])	Neutral Red SI (IC50/EC50) [3]	Neutral Red SI (IC50/EC50) [4]	Neutral Red SI (IC50/EC50) [5]	Neutral Red SI (IC50/EC50) [6]	Neutral Red SI (IC50/EC50) (Measles Virus [7])	CPE Inhibition SI (IC50/EC50) [8]	CPE Inhibition SI (IC50/EC50) [9]	CPE Inhibition SI (IC50/EC50) (Influenza B Panama/45/90 [10])	CPI Inhibition SI (IC50/EC50) (Measles Virus [11])	CPE Inhibition SI (IC50/EC50) [12]	CPI Inhibition SI (IC50/EC50) [13]	Neutral Red SI (IC50/EC50) (Influenza B Panama/45/90 [14])	CPE Inhibition SI (IC50/EC50) (Influenza B Panama/45/90 [10]; listed as volkensiflavone hexamethyl ether)	CPE Inhibition SI (IC50/EC50) (Influenza B Panama/45/90 [10]; listed as volkensiflavone hexamethyl ether (6))
Nc1ccn([C@H]2CC[C@@H](CO)O2)c(=O)n1 [2′,3′-ddC, 2′,3′-dideoxycytosine, reference compound]	30																
Nc1ncnc2c1ncn2C[C@@H](CO)OCP(=O)(O)O [HPMPA, (S)-1-(3-hydroxy-2-phosophonylmethoxypropyl)adenine, reference compound]		5	3														
O=C1CC(c2ccc(O)cc2)Oc2cc(O)c(-c3c(O)cc(O)c4c3OC(c3ccc(O)cc3)CC4=O)c(O)c21 (centres unmarked) [Rhusflavanone (9), rhusflavanone]		0	1	0	1.0	0	1.1	8	0	0	9.3	2	0	0			
O=C1CC(c2ccc(O)cc2)Oc2cc(O)c(-c3c(O)cc4c(c3O)C(=O)CC(c3ccc(O)cc3)O4)c(O)c21 (centres unmarked) [Succedaneaflavanone (11), succedaneaflavanone]		1	0	0	1.0	0	1.0	1	0	<1.5	15	0	<1.2	0	3.2		
CC(=O)Oc1ccc([C@@H]2CC(=O)c3c(cc(OC(C)=O)c(-c4c(OC(C)=O)cc(OC(C)=O)c5c4O[C@H](c4ccc(OC(C)=O)cc4)CC5=O)c3OC(C)=O)O2)cc1 [Rhusflavanone hexaacetate (10), rhusflavanone hexaacetate]		1	0	0	1.0	2	1.0	0	0	0	0	0	0	0			
CC(=O)Oc1ccc([C@@H]2CC(=O)c3c(cc(OC(C)=O)c(-c4c(OC(C)=O)cc5c(c4OC(C)=O)C(=O)C[C@@H](c4ccc(OC(C)=O)cc4)O5)c3OC(C)=O)O2)cc1 [Succedaneaflavanone hexaacetate (12), succedaneaflavanone hexaacetate]		1	1	0	1.0	1	1.0	<1	0	1.5	2.2	0	1.4	0	1.0		
COc1ccc(-c2cc(=O)c3c(OC)cc(OC)c(C4C(=O)c5c(OC)cc(OC)cc5OC4c4ccc(OC)cc4)c3o2)cc1 (centres unmarked) [Volkensiflavone hexamethyl ether (6), volkensiflavone hexamethyl ether]		0	0	0	0	>1	0	1	2	0	˜38	1	0	0	5.0	38	~38
Nc1nc2c(ncn2CCC(CO)CO)c(=O)[nH]1 [Penciclovir, penciclovir, reference compound]	471																

Like-named read-outs stand apart in the source and are kept apart here.
